PubChem BioAssay AID624099 – ICCB-Longwood – 2012
Shown is one part, drawn at random, of about 21,000 reagents. 497 of them (2.4%) count as active. 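Higher z means weaker E2 silencing; only reporter increases were scored, and knock-downs that hurt cell survival may mask genuine repressor factors.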 Unmarked entries are inactive.

- Assay: 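Human genes that papillomavirus E2 requires to repress the HPV18 LCR promoter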 (primary screen)
- System: human C33A cervical carcinoma cells (HPV-negative) stably expressing BPV1 E2 and an HPV18 LCR luciferase reporter
- Knock-down reagent: siRNA pool against human genes, 40 nM
- Time to read-out: 72 h
- Detection: 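Per-well luciferase luminescence, z-scored on each plate against the plate mean and SD with control wells left out, then averaged across three replicate plates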
- Scale: mean z-score and z-score: higher = stronger reporter signal, weaker E2 silencing
- Hit rule: 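Mean z ≥ 2 together with z ≥ 2 in two or more of the three replicates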

With knock-down of PSG1, the screen gave mean z-score 0.43; z-score, replicate A = 0.33; z-score, replicate B = 0.38; z-score, replicate C = 0.6. With knock-down of LINC01550, the screen gave mean z-score -1.19; z-score, replicate A = -1.28; z-score, replicate B = -1.34; z-score, replicate C = -0.95. Depletion of TRIM5 came out at: mean z-score -0.61; z-score, replicate A = -0.49; z-score, replicate B = -1; z-score, replicate C = -0.34. Against FLJ41170 (retired record), the entry reads mean z-score 0.34; z-score, replicate A = 0.02; z-score, replicate B = 0.53; z-score, replicate C = 0.45. For ZNF177 the deposit lists mean z-score -0.32; z-score, replicate A = -0.33; z-score, replicate B = -0.24; z-score, replicate C = -0.38. After knock-down of USP12 the results were mean z-score -0.22; z-score, replicate A = -0.58; z-score, replicate B = 0.11; z-score, replicate C = -0.19.

With knock-down of ZIM2 the results were mean z-score 0.47; z-score, replicate A = 0.16; z-score, replicate B = 0.41; z-score, replicate C = 0.82. MGRN1 showed mean z-score -0.06; z-score, replicate A = -0.37; z-score, replicate B = 0.19; z-score, replicate C = -0.01. ZNF663P showed mean z-score 1.26; z-score, replicate A = 1.38; z-score, replicate B = 1.25; z-score, replicate C = 1.14. Silencing of RNPEPL1 came out at: mean z-score -1.05; z-score, replicate A = -1.05; z-score, replicate B = -0.94; z-score, replicate C = -1.17.

Reformatted: results already given.
| target | mean z-score | z-score, replicate A | z-score, replicate B | z-score, replicate C |
| --- | --- | --- | --- | --- |
| USP12 | -0.22 | -0.58 | 0.11 | -0.19 |
| ZIM2 | 0.47 | 0.16 | 0.41 | 0.82 |

The list goes on:
Depletion of LOC339306 (retired record) gave: mean z-score 0.55; z-score, replicate A = 0.12; z-score, replicate B = 0.74; z-score, replicate C = 0.79. After knock-down of GZMH, the record shows mean z-score 0.22; z-score, replicate A = -0.15; z-score, replicate B = 0.47; z-score, replicate C = 0.35. Knock-down of FLJ90680 (retired record) came out at: mean z-score 0.17; z-score, replicate A = 0.28; z-score, replicate B = 0.32; z-score, replicate C = -0.1. After knock-down of LOC286161 (retired record) the results were mean z-score 0.68; z-score, replicate A = 0.57; z-score, replicate B = 0.66; z-score, replicate C = 0.8. Knock-down of PCDHA9 resulted in: mean z-score -0.21; z-score, replicate A = -0.34; z-score, replicate B = -0.02; z-score, replicate C = -0.26. Depletion of TPT1P8 gave: mean z-score 0.74; z-score, replicate A = 0.89; z-score, replicate B = 0.52; z-score, replicate C = 0.81.

Against RASA2, the values are mean z-score 0.24; z-score, replicate A = 0.2; z-score, replicate B = 0.08; z-score, replicate C = 0.44. For ZNF541, the entry reads mean z-score 1.03; z-score, replicate A = 0.8; z-score, replicate B = 1.23; z-score, replicate C = 1.07. After knock-down of ZNF331, the screen gave mean z-score -0.41; z-score, replicate A = -0.11; z-score, replicate B = -0.52; z-score, replicate C = -0.59. With knock-down of KCNH1, the record shows mean z-score -0.35; z-score, replicate A = -0.44; z-score, replicate B = -0.27; z-score, replicate C = -0.34. LOC399924 (retired record) showed mean z-score -0.47; z-score, replicate A = -0.36; z-score, replicate B = -0.31; z-score, replicate C = -0.74. With knock-down of DLX6-AS1, the screen gave mean z-score -1.16; z-score, replicate A = -1.13; z-score, replicate B = -1.27; z-score, replicate C = -1.07.

Against RAE1, the values are mean z-score 2.42 (active); z-score, replicate A = 2.54; z-score, replicate B = 2.64; z-score, replicate C = 2.08. Against TULP4, the values are mean z-score 0.62; z-score, replicate A = 0.5; z-score, replicate B = 0.69; z-score, replicate C = 0.68. Against FOXF1, the entry reads mean z-score -1.14; z-score, replicate A = -1.54; z-score, replicate B = -1; z-score, replicate C = -0.87. Silencing of LOC400301 (retired record) resulted in: mean z-score 0.05; z-score, replicate A = 0.26; z-score, replicate B = -0.35; z-score, replicate C = 0.24. Silencing of TMEM70 gave: mean z-score 0.68; z-score, replicate A = 0.84; z-score, replicate B = 0.89; z-score, replicate C = 0.31.
